Key:
Assay type in all cases: functional
Escherichia coli [1] = assay: Antimicrobial activity against Escherichia coli EPI300 Irk1224 type 1 mutant harboring beta-lactamase CTX-M-3 gene by agar dilution method
Escherichia coli [2] = assay: Antimicrobial activity against Escherichia coli EPI300 harboring GM2995 pCC1-1224 carrying CTX-M-3 beta-lactamase gene from by agar dilution method
Escherichia coli [3] = assay: Antimicrobial activity against Escherichia coli EPI300 harboring GM2995 pCC1 carrying beta-lactamase CTX-M-3 gene by agar dilution method

Measured: MIC

CO/N=C(\C(=O)N[C@@H]1C(=O)N2C(C(=O)O)=C(COC(C)=O)CS[C@H]12)c1csc(N)n1 [CEFOTAXIME]
8 µg/mL: Escherichia coli [1] | Escherichia coli [2] | Escherichia coli [3]
